Anti-infective test results gathered from many reports (values: NIAID ChemDB through PubChem).

Shared fields: tests on isolated targets; agent: HIV-1; target: Reverse transcriptase

Conditions beyond the fields shown may differ between rows. Two numbers with a dash give a range or band. ICn: concentration for n% inhibition.

{"structure": "COC(=O)c1ccc2c(c1)CN(c1nn3c(C)nnc3c3ccccc13)CC2", "endpoint": "IC50", "strain or isolate": "IIIB", "method": "RT activity / fluorescence", "value": "2.01 µM"}
{"structure": "CCN1c2ncc(CCOc3ccc(-c4cn(C)cn4)cc3C)cc2C(=O)N(C)c2cccnc21", "endpoint": "IC50", "strain or isolate": "IIIB", "method": "nucleotide incorporation / radiometric", "value": "<0.05 µM"}
{"structure": "COc1ccccc1CC(=O)Nc1ccc(NC(=O)CSc2nnnn2-c2ccc(C(C)(C)C)cc2Cl)c(Cl)c1", "endpoint": "IC50", "method": "PicoGreen / fluorescence", "mutations": "RT-K103 Y181C", "value": "<1 µM"}
{"structure": "CCN1c2ncc(CCOc3ccc(-c4cccc(C(=O)O)c4)cc3)cc2C(=O)N(C)c2cccnc21", "endpoint": "IC50", "strain or isolate": "IIIB", "method": "nucleotide incorporation / radiometric", "value": "<0.05 µM"}
{"structure": "CCc1cc(NCc2nc3c(C)ccc(C)c3o2)c(=O)[nH]c1C", "endpoint": "IC50", "method": "nucleotide incorporation", "mutations": "RT-Y188F", "value": "0.047 µM"}
{"structure": "CCN1c2ncc(CCOc3ccc(C(=O)NCC4(C(=O)O)CCCC4)cc3C)cc2C(=O)N(C)c2cccnc21", "endpoint": "IC50", "strain or isolate": "IIIB", "method": "nucleotide incorporation / radiometric", "mutations": "RT-K103N Y181C", "value": ">0.1 µM"}
{"structure": "CC(C)(C#Cc1ccc(NC(=O)CSc2nnnn2-c2ccc(C3CC3)cc2Cl)c(Cl)c1)NC(=O)c1cnccn1", "endpoint": "IC50", "method": "PicoGreen / fluorescence", "mutations": "RT-K103 Y181C", "value": "<1 µM"}
{"structure": "CCN1c2ncc(CCOc3ccc(CC(=O)O)c4c3CCCC4)cc2C(=O)N(C)c2ccc(F)nc21", "endpoint": "IC50", "method": "nucleotide incorporation / radiometric", "mutations": "RT-V106A", "value": ">1 µM"}
{"structure": "CC(C)(C)c1ccc(-n2nnnc2SCC(=O)Nc2ccc(OCC(=O)NCCc3ccc(O)c(O)c3)cc2Cl)c(Cl)c1", "endpoint": "IC50", "method": "PicoGreen / fluorescence", "mutations": "RT-K103 Y181C", "value": "<1 µM"}
{"structure": "CC(C)c1nnc2c3ccccc3c(N3CCc4ccc(NS(C)(=O)=O)cc4C3)nn12", "endpoint": "IC90", "strain or isolate": "KER2008", "method": "RT activity / fluorescence", "value": "2.48 µM"}
{"structure": "CCN1c2ncc(CCOc3ccc(-c4cc(CC(=O)O)ccc4OC)cc3C)cc2C(=O)N(C)c2cccnc21", "endpoint": "IC50", "strain or isolate": "IIIB", "method": "nucleotide incorporation / radiometric", "mutations": "RT-K103N Y181C", "value": "0.05–0.1 µM"}
{"structure": "CCN1c2ncc(CCOc3ccc(/C=C(\\C)C(=O)O)c4ccccc34)cc2C(=O)Nc2c(C)cc(Cl)nc21", "endpoint": "IC50", "method": "nucleotide incorporation / radiometric", "mutations": "RT-V106A", "value": "0.1–1 µM"}
{"structure": "CN(C)c1ccc(NC(=O)c2ccc(NC(=O)CSc3nnnn3-c3ccc(C(C)(C)C)cc3Cl)c(Cl)c2)cc1", "endpoint": "IC50", "strain or isolate": "WT", "method": "PicoGreen / fluorescence", "value": "<1 µM"}
{"structure": "CCN1c2ncc(CCOc3ccc(C(=O)N=c4ccccn4O)cc3C)cc2C(=O)Nc2c(C)ccnc21", "endpoint": "IC50", "strain or isolate": "IIIB", "method": "nucleotide incorporation / radiometric", "value": "<0.05 µM"}
{"structure": "O=C(O)Cc1ccc(-c2ccc(NC(=O)CSc3nnnn3-c3ccc(OC(F)(F)F)cc3Cl)c(Cl)c2)cc1", "endpoint": "IC50", "method": "PicoGreen / fluorescence", "mutations": "RT-K103 Y181C", "value": "<1 µM"}
{"structure": "CCN1c2ncc(CCOc3ccc(/C=C(\\C)C(=O)O)c4ccccc34)cc2C(=O)N(C)c2ccc(C)nc21", "endpoint": "IC50", "method": "nucleotide incorporation / radiometric", "mutations": "RT-Y188L", "value": ">1 µM"}
{"structure": "Cc1cc(-c2ccc(CC(=O)O)cc2)ccc1OCCc1cnc2c(c1)C(=O)N(C)c1cccnc1N2", "endpoint": "IC50", "strain or isolate": "IIIB", "method": "nucleotide incorporation / radiometric", "value": "<0.05 µM"}
{"structure": "CCOC(=O)NC(C)(C)C#Cc1ccc(NC(=O)CSc2nnnn2-c2ccc(C3CC3)cc2Cl)c(Cl)c1", "endpoint": "IC50", "strain or isolate": "WT", "method": "PicoGreen / fluorescence", "value": "<1 µM"}
{"structure": "CCN1c2ncc(CCOc3ccc(C(=O)O)c4ccccc34)cc2C(=O)Nc2c(C)ccnc21", "endpoint": "IC50", "method": "nucleotide incorporation / radiometric", "mutations": "RT-V106A", "value": "0.1–1 µM"}
{"structure": "CC(C)(C)c1ccc(-n2nnnc2SCC(=O)Nc2ccc(NC(=O)Cc3ccc([N+](=O)[O-])cc3)cc2Cl)c(Cl)c1", "endpoint": "IC50", "method": "PicoGreen / fluorescence", "mutations": "RT-K103 Y181C", "value": "<1 µM"}
{"structure": "Cc1nnc2c3ccccc3c(N3CCc4cc(O)c(O)cc4C3)nn12", "endpoint": "IC90", "strain or isolate": "KER2008", "method": "RT activity / fluorescence", "value": "2.78 µM"}
{"structure": "O=C(O)Cc1ccc(-c2ccc(NC(=O)CSc3nnnn3-c3ccc4ncsc4c3Cl)c(Cl)c2)cc1", "endpoint": "IC50", "strain or isolate": "WT", "method": "PicoGreen / fluorescence", "value": "<1 µM"}
{"structure": "CCN1c2ncc(CCOc3ccc(C(=O)O)c4c3CCN(C(=O)OC(C)(C)C)C4)cc2C(=O)N(C)c2cccnc21", "endpoint": "IC50", "strain or isolate": "WT", "method": "nucleotide incorporation / radiometric", "value": "<0.1 µM"}
{"structure": "CCN1c2ncc(CCOc3ccc(C(=O)Nc4cccc(CC(=O)O)c4)cc3C)cc2C(=O)N(C)c2cccnc21", "endpoint": "IC50", "strain or isolate": "IIIB", "method": "nucleotide incorporation / radiometric", "mutations": "RT-K103N Y181C", "value": "<0.05 µM"}
{"structure": "CCN1c2ncc(CCOc3ccc(C(=O)O)c4c3CCCC4)cc2C(=O)N(C)c2ccc(C)nc21", "endpoint": "IC50", "method": "nucleotide incorporation / radiometric", "mutations": "RT-K103N Y181C", "value": "0.1–1 µM"}
{"structure": "CN1CCN(c2cc(N)cc3c2CCN(c2nn4c(C5CC5)nnc4c4ccccc24)C3)CC1", "endpoint": "IC50", "strain or isolate": "IIIB", "method": "RT activity / fluorescence", "value": "19.9 µM"}
{"structure": "CC(C)(C#Cc1ccc(NC(=O)CSc2nnnn2-c2cc(C(F)(F)F)ccc2Cl)c(Cl)c1F)OCCOc1ccncc1", "endpoint": "IC50", "strain or isolate": "WT", "method": "PicoGreen / fluorescence", "value": "<1 µM"}
{"structure": "CCN1c2ncc(CCOc3ccc(-c4cccnc4)cc3C)cc2C(=O)N(C)c2cccnc21", "endpoint": "IC50", "strain or isolate": "IIIB", "method": "nucleotide incorporation / radiometric", "value": "<0.05 µM"}

A second listing of 2 rows from above:

CC(C)(C)c1ccc(-n2nnnc2SCC(=O)Nc2ccc(OCC(=O)NCCc3ccc(O)c(O)c3)cc2Cl)c(Cl)c1 ; endpoint: IC50 ; method: PicoGreen / fluorescence ; mutations: RT-K103 Y181C ; value: <1 µM
CCN1c2ncc(CCOc3ccc(C(=O)O)c4ccccc34)cc2C(=O)Nc2c(C)ccnc21 ; endpoint: IC50 ; method: nucleotide incorporation / radiometric ; mutations: RT-V106A ; value: 0.1–1 µM